Pooled drug test results. Numbers come from NIAID ChemDB, via PubChem.

All rows: host cell toxicity; cell line: MT-4; read-out: CC50

Lines come from different laboratories, so protocols vary.

compound	read by	result
O=C(O)CCN1C(=O)/C(=C\c2ccc(-c3cccc([N+](=O)[O-])c3)o2)SC1=S	propidium iodide	36 µM
CCCCCOC(=O)OCOc1c2n(cc(C(=O)NCc3ccc(F)cc3F)c1=O)[C@@H]1CN(C2=O)[C@@H](C)CC[C@]12CC(C)=NO2	luminescence	50 µM
CC(C)CNC1CN(C)CCn2c1nc(C(=O)NCc1ccc(F)cc1)c(O)c2=O	microscopy	>10 µM
N#Cc1cc(-n2nc(-c3nccc4c3CNC4=O)cc2-c2cc(F)cc(Cl)c2)ccc1F	resazurin	>3.3 µM
CC(=O)Nc1ccc(C(=O)Nc2ccc(-c3nc4ccc(NC(=O)c5ccc(NC(C)=O)cc5)cc4[nH]3)cc2)cc1	propidium iodide	>10 µM
NC(=O)c1[nH]c2ccc(Cl)cc2c1S(=O)(=O)CC1CCC1	microscopy	>10 µM
Cc1cc(CN2CCn3c(nc(C(=O)NCc4ccc(F)cc4)c(O)c3=O)C2(C)C)no1	microscopy	>1 µM
COc1ccc(-c2cc(-c3ccco3)c(C#N)c(=O)n2[C@@H]2O[C@H](COC(C)=O)[C@H](OC(C)=O)[C@H](OC(C)=O)[C@H]2OC(C)=O)cc1	XTT	>11.6 µM
Cc1cc(F)cc(-c2cc(-c3nccc4c3CNC4=O)nn2-c2ccc(F)c(Cl)c2)c1	resazurin	>3.3 µM
CC(=O)OC[C@H]1O[C@@H](n2c(-c3ccc(N)cc3)cc(-c3ccco3)c(C#N)c2=O)[C@H](OC(C)=O)[C@@H](OC(C)=O)[C@@H]1OC(C)=O	XTT	>11.8 µM
O=C1NCc2c1ccnc2-c1cc(-c2cc(F)cc(OC(F)F)c2)n(-c2cccnc2)n1	resazurin	>3.3 µM
CC(=O)OC[C@H]1O[C@@H](n2c(-c3ccccc3)cc(-c3ccccc3)c(C#N)c2=O)[C@H](OC(C)=O)[C@@H](OC(C)=O)[C@@H]1OC(C)=O	XTT	>16.5 µM
CCOC(=O)c1[nH]c2ccc(Cl)cc2c1SCC(F)(F)F	microscopy	>10 µM
CCCCCCCCCCCCCCCC(=O)Oc1c2n(cc(C(=O)NCc3ccc(F)cc3F)c1=O)[C@@H]1CN(C2=O)[C@@H](C)CC[C@]12CC(OC)=NO2	luminescence	50 µM
NC(=O)c1[nH]c2ccc(Cl)cc2c1S(=O)(=O)CC1CCCCC1	microscopy	>10 µM
CC1(C)c2nc(C(=O)NCc3ccc(F)cc3)c(O)c(=O)n2CCN1Cc1cnccn1	microscopy	>1 µM
O=C1NCc2c1cccc2-c1cc(-c2cccc(F)c2F)n(-c2ccc(F)c(Cl)c2)n1	resazurin	>3.3 µM
CCCCCCCCCCOC(=O)OCOc1c2n(cc(C(=O)NCc3ccc(F)cc3F)c1=O)[C@@H]1CN(C2=O)[C@@H](C)CC[C@]12CC(OC)=NO2	luminescence	50 µM
O=C1NCc2c1cccc2-c1cc(-c2cc(Cl)cc(OC(F)F)c2)n(-c2cccnc2)n1	resazurin	>3.3 µM
CCCCCCCCCCCCCCCCCC(=O)OCOc1c2n(cc(C(=O)NCc3ccc(F)cc3F)c1=O)[C@@H]1CN(C2=O)[C@@H](C)CC[C@]12CC(OC)=NO2	luminescence	50 µM
O=C1NCc2c1cccc2-c1cc(-c2cc(F)cc(Cl)c2)n(-c2cccc(Cl)c2)n1	resazurin	>3.3 µM
CCCCCCCCC(=O)OCOc1c2n(cc(C(=O)NCc3ccc(F)cc3F)c1=O)[C@@H]1CN(C2=O)[C@@H](C)CC[C@]12CC(OC)=NO2	luminescence	50 µM
CC1(C)c2nc(C(=O)NCc3ccc(F)cc3)c(O)c(=O)n2CCN1CC#N	microscopy	>1 µM
O=C1N/C(=N\N=C\c2ccc(Cl)c([N+](=O)[O-])c2)S/C1=C/c1ccc(-c2ccc(Cl)c(C(=O)O)c2)o1	propidium iodide	40 µM
NC(=O)c1[nH]c2ccc(Cl)cc2c1S(=O)(=O)CCC(F)(F)F	microscopy	>10 µM
CNC(=O)c1cc(F)ccc1CNC(=O)c1nc2n(c(=O)c1O)CCN(C)C2(C)C	microscopy	>1 µM
O=C(O)c1ccccc1/C=C/c1cc(F)cc(/C=C/C2C=CC=CC2)c1	propidium iodide	63 µM
O=C1NCc2c1ccnc2-c1cc(-c2ccc(F)c(OC(F)(F)F)c2)n(-c2cccc(Cl)c2)n1	resazurin	>3.3 µM
CC1(C)c2nc(C(=O)NCc3ccc(F)cc3)c(O)c(=O)n2CCN1CC(=O)N1CCOCC1	microscopy	>1 µM
CCOC(=O)c1[nH]c2ccc(Cl)cc2c1S(=O)(=O)C1CCCCC1	microscopy	>10 µM
Cc1nnc(C(=O)N(C)C2CN(C)CCn3c2nc(C(=O)NCc2ccc(F)cc2)c(O)c3=O)o1	microscopy	>1 µM
COc1ccc(-c2cc(-c3ccccc3)c(C#N)c(=O)n2[C@@H]2O[C@H](COC(C)=O)[C@H](OC(C)=O)[C@H](OC(C)=O)[C@H]2OC(C)=O)cc1	XTT	>11.4 µM
O=C1NC(=O)c2c1cccc2-c1cc(-c2cc(F)cc(OC(F)(F)F)c2)n(-c2cccnc2)n1	resazurin	>3.3 µM
CN1Cn2c(nc(C(=O)NCc3ccc(F)cc3)c(O)c2=O)C12CCCCC2	microscopy	>1 µM
N#Cc1cc(-n2nc(-c3cccc4c3CNC4=O)cc2-c2cc(F)cc(Cl)c2)ccc1F	resazurin	>3.3 µM
O=C(NCc1ccc(F)cc1)c1nc2n(c(=O)c1O)CCN(Cc1ccccc1)CC2	microscopy	>1 µM
CCCCCCCCCCCCOC(=O)OCOc1c2n(cc(C(=O)NCc3ccc(F)cc3F)c1=O)[C@@H]1CN(C2=O)[C@@H](C)CC[C@]12CC(OC)=NO2	luminescence	50 µM

3 of the rows above, restated:

compound	read by	result
CC(=O)OC[C@H]1O[C@@H](n2c(-c3ccccc3)cc(-c3ccccc3)c(C#N)c2=O)[C@H](OC(C)=O)[C@@H](OC(C)=O)[C@@H]1OC(C)=O	XTT	>16.5 µM
CCCCCCCCCCCCCCCC(=O)Oc1c2n(cc(C(=O)NCc3ccc(F)cc3F)c1=O)[C@@H]1CN(C2=O)[C@@H](C)CC[C@]12CC(OC)=NO2	luminescence	50 µM
CCCCCOC(=O)OCOc1c2n(cc(C(=O)NCc3ccc(F)cc3F)c1=O)[C@@H]1CN(C2=O)[C@@H](C)CC[C@]12CC(C)=NO2	luminescence	50 µM

CCn is the concentration with n% toxicity to the cells.